Laboratory results published in publication PMC12060211, “Development of Efficient Covalent Inactivators of a Fungal Aspartate Semialdehyde Dehydrogenase” (Drug Development Research, 2025).

Protein sequences, listed by entry. Tags and fused reporters are not part of them.
UniProt Q5ALM0, whole entry: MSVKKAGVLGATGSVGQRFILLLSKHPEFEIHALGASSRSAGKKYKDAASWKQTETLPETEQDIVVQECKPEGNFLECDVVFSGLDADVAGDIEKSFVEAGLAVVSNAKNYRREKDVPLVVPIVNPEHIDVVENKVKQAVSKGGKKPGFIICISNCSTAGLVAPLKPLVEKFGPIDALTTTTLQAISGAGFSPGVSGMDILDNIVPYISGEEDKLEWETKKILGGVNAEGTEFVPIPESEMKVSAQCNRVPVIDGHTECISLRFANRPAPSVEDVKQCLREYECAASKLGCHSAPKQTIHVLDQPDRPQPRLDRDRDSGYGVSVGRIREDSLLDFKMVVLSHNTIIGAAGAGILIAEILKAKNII

Target: CalASADH (C. albicans ASADH, aspartate semialdehyde dehydrogenase) (Candida albicans, UniProt Q5ALM0)
Test: time-dependent inactivation, NADPH formation at […] nm, kobs = kinact[I]/(Ki+[I])
Details: read-out: Ki; covalent; irreversible inactivation; residual activity read at pH 8.6 with 0.3 mM L-aspartate-beta-semialdehyde, 20 mM phosphate, 1.5 mM NADP; tested form: HCl

| Structure (SMILES) | KI (inactivation) |
| --- | --- |
| NC(=O)/C=C/C[C@H](N)C(=O)O | 1460 nM |
| CN(C)C(=O)/C=C/C[C@H](N)C(=O)O | 1430 nM |

The structures given here were assigned with low confidence; some may be wrong.
